# Potato spindle tuber viroid, loop 6: variant abundance in plants

Values reported by Wu et al. 2024 (doi:10.1371/journal.ppat.1012142).

The pool varies loop 6 of the PSTVd intermediate strain in the pattern UNNNCGNNNG; wild type is UGACCGCGAG (upper and lower strand joined, each 5' to 3', the first 5 letters being the upper strand, closing pairs included).

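Three N. benthamiana plants were inoculated with the whole mutant pool. Samples came from the inoculated region at 5 days, the leaf margin at 10 and upper systemic leaves at 12.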

Values are reads per thousand in the sample; higher means more abundant, 0 means not found. Each value is the mean of three plants. "Pool" is the share in the plasmid pool used as inoculum, on the same scale. The inoculated region was read from the minus strand, the other sites from the plus strand.

For UAAGCGCCCG (pool 0.392) the result was inoculated region 0.107; leaf margin 0; systemic leaves 0. With UUCACGGACG (pool 0.340) the assay gave inoculated region 0.620; leaf margin 0.0660; systemic leaves 0.0247. With UAACCGUCAG (pool 0.222) the assay gave inoculated region 0.636; leaf margin 0.120; systemic leaves 0.0474. With UCGACGGUUG (pool 0.235) the assay gave inoculated region 0.0959; leaf margin 0; systemic leaves 0. UAAACGUCCG (pool 0.157) read inoculated region 0.639; leaf margin 0.0754; systemic leaves 0. For UAUCCGCAUG (pool 0.0915) the result was inoculated region 0.108; leaf margin 0.0155; systemic leaves 0. With UUGGCGCAGG (pool 0.209) the assay gave inoculated region 0.125; leaf margin 0.0169; systemic leaves 0. UGCCCGAUCG (pool 0.301) gave inoculated region 0.0894; leaf margin 0.0247; systemic leaves 0.

UGACCGCAGG (pool 0.0654) read inoculated region 0.125; leaf margin 0.235; systemic leaves 0.0262. UUUGCGUAAG (pool 0.131) gave inoculated region 0.0947; leaf margin 0; systemic leaves 0. With UUUCCGCAUG (pool 0.196) the assay gave inoculated region 0.100; leaf margin 0.00920; systemic leaves 0. UCAACGAAAG (pool 0.0654) read inoculated region 0.508; leaf margin 0.0739; systemic leaves 0. For UUACCGGACG (pool 0.301) the result was inoculated region 0.659; leaf margin 0.0781; systemic leaves 0. With UUAACGGGCG (pool 0.157) the assay gave inoculated region 3.78; leaf margin 1.26; systemic leaves 0.535. UGAACGGCAG (pool 0.144) gave inoculated region 3.80; leaf margin 0.946; systemic leaves 1.91. UUACCGACGG (pool 0.196) gave inoculated region 0.204; leaf margin 0; systemic leaves 0.

For UGGUCGGGGC (pool 0.0261) the result was inoculated region 0; leaf margin 0; systemic leaves 0. For UUAGCGAUAG (pool 0.301) the result was inoculated region 0.0541; leaf margin 0.0943; systemic leaves 0. For UUUACGUAGG (pool 0.379) the result was inoculated region 0.0889; leaf margin 0.00773; systemic leaves 0. UUAGCGCGUG (pool 0.222) gave inoculated region 0.0659; leaf margin 0; systemic leaves 0. UCAACGGGGG (pool 0.118) read inoculated region 0.0652; leaf margin 0.00920; systemic leaves 0. UCUACGUAGG (pool 0.196) read inoculated region 0.154; leaf margin 0.0460; systemic leaves 0. With UUGCCGAUAG (pool 0.209) the assay gave inoculated region 0.107; leaf margin 0.0232; systemic leaves 0. UGGACGCUUG (pool 0.327) read inoculated region 0.119; leaf margin 0.00773; systemic leaves 0.

UGAACGGAUG (pool 0.261) read inoculated region 0.687; leaf margin 0.108; systemic leaves 0. UGCACGCCAG (pool 0.261) gave inoculated region 0.107; leaf margin 0.00920; systemic leaves 0.0323. For UGGUCGGGCG (pool 0.183) the result was inoculated region 0.0540; leaf margin 0; systemic leaves 0. UACACGCAAG (pool 0.0915) gave inoculated region 0.603; leaf margin 0.0407; systemic leaves 0.0338. UACACGGUUG (pool 0.196) read inoculated region 0.0826; leaf margin 0; systemic leaves 0. For UUGGCGGCAG (pool 0.379) the result was inoculated region 0.0601; leaf margin 0; systemic leaves 0. With UCCUCGCAGG (pool 0.105) the assay gave inoculated region 0.143; leaf margin 0.0155; systemic leaves 0. With UCGGCGCAUG (pool 0.209) the assay gave inoculated region 0.0717; leaf margin 0; systemic leaves 0.

With UAAACGUUAG (pool 0.131) the assay gave inoculated region 0.485; leaf margin 0.124; systemic leaves 0.0136. With UCAUCGAGCG (pool 0.183) the assay gave inoculated region 0.101; leaf margin 0.00773; systemic leaves 0. UUGGCGGUUG (pool 0.353) read inoculated region 0.0603; leaf margin 0; systemic leaves 0. UUCGCGCGAG (pool 0.340) gave inoculated region 0.149; leaf margin 0.473; systemic leaves 0.0527. UGCCCGAGAG (pool 0.235) gave inoculated region 0.0952; leaf margin 0.0176; systemic leaves 0. UCACCGGAGG (pool 0.183) read inoculated region 0.102; leaf margin 0.0464; systemic leaves 0. For UGUACGAGCG (pool 0.301) the result was inoculated region 0.0947; leaf margin 0.00773; systemic leaves 0. UUAGCGAAUG (pool 0.301) gave inoculated region 0.0652; leaf margin 0; systemic leaves 0.

The first 4 entries again:

sequence	pool	inoculated region	leaf margin	systemic leaves
UAAGCGCCCG	0.392	0.107	0	0
UUCACGGACG	0.340	0.620	0.0660	0.0247
UAACCGUCAG	0.222	0.636	0.120	0.0474
UCGACGGUUG	0.235	0.0959	0	0

Samples held 36,220 to 57,551 reads, so the smallest values rest on one or two reads. Wild type was 20.7 per thousand in the pool and the most common sequence in every sample (inoculated region 195, 198, 203; leaf margin 629, 591, 734; systemic leaves 942, 870, 868). Sequences that differ at fixed positions probably stem from PCR or sequencing errors, and defective variants can be carried along by functional ones.